Compound potency records, mixed from different reports. Data source: NIAID ChemDB in PubChem.

Common to all: whole-cell or culture tests; species: HIV-1

Two numbers with a dash give a range or band.

| smiles | mutations | endpoint | method | strain | cells | value |
|---|---|---|---|---|---|---|
| CCN(CC)C(=O)c1c2c(c(O)c(=O)n1C)C(=O)N(Cc1ccc(F)cc1)CC2 | - | EC50 | p24 | - | MT-4 | <10 µM |
| CCCCCCCCCC[N+](C)(C)CCCNCc1c(O)cc2c(c1O)-c1cc(ccc1O)[C@H]1NC(=O)[C@@H]3NC(=O)C4NC(=O)[C@@H](Cc5ccc(c(Cl)c5)Oc5cc3cc(c5O)Oc3ccc(cc3Cl)[C@@H](O)[C@H](NC1=O)C(=O)N[C@@H]2C(=O)O)NC(=O)[C@H](N)c1ccc(O)c(c1)Oc1cc(O)cc4c1 | RT-Y181C | EC50 | syncytia | - | CEM | 8.5 µM |
| Cc1sccc1C(=S)Nc1ccc(Cl)c(OCC=C(Cl)Cl)c1 | RT-E138K | EC50 | syncytia | TSAO-m3T-resistant (RT E138K) | CEM | 0.075 µg/mL |
| Fc1ccc(NC(=S)NC2CCN(Cc3ccccc3)CC2)cc1 | - | EC50 | MTT | IIIB | MT-4 | >34 µM |
| CC(C)C(OC(=O)c1cc(NC(=S)c2cccn2C)ccc1Cl)C(C)C | - | EC50 | cytopathic effect / XTT | RF | CEM + CEM-SS | 0.13 µM |
| CC(C)=CCOc1cc(NC(=S)c2ccoc2C)ccc1Cl | RT-V106A | EC50 | syncytia | IIIB | CEM | 0.015 µM |
| N#CCN1c2ccccc2C2C1C=C(C#N)C(=O)N2c1ccc([N+](=O)[O-])cc1 | - | EC50 | cytopathic effect / MTT | LAI | MT-4 | <1 µM |
| Cc1cc(/C=C/C#N)cc(C)c1Oc1ccnc(Nc2ccc(CN3CCN(S(=O)(=O)N(C)C)CC3)cc2)n1 | Y181C | EC50 | MTT | - | MT-4 | 0.092 µM |
| COc1ccccc1C(=O)N(Cc1ccccc1)c1ccc(Cl)c(C(=O)OC(C)C)c1 | - | EC50 | cytopathic effect / XTT | RF | CEM + CEM-SS | >100 µM |
| Fc1ccccc1NC(=S)NCc1ccco1 | - | EC50 | MTT | IIIB | MT-4 | >100 µM |
| COc1cccc2[nH]cc(C(=O)C(=O)N3CCN(C(=O)c4ccccc4)C[C@H]3C)c12 | - | EC50 | virus yield | MN | MT-2/CXCR4 | 0.844 µM |
| COC(=O)c1[nH]c(=O)c(O)c2c1CCN(Cc1ccc(F)cc1)C2=O | - | EC50 | p24 | - | MT-4 | <10 µM |
| CSC1=NC2(C[C@@H]2c2ccccc2)C(=O)N1 | - | EC50 | MTT | IIIB | MT-4/C8166 + MT-4 | 2.1 µg/mL |
| O=C(COc1ccc(Cl)cc1C(=O)c1ccccc1)Nc1ccccc1 | - | EC50 | p24 | RF | C8166 | 0.0032 µM |
| Cc1cc(C)cc(Cc2c(I)c(=O)[nH]c(=O)n2COCc2ccccc2)c1 | K103N | EC50 | p24 / ELISA | A17 | MT-4 | 0.151 µM |
| N=C1Sc2ccccc2C2=NCCCN12 | - | EC50 | β-galactosidase | 96USNG31 | PBMC | 0.14 µM |
| CN1CCN(C(=O)CN2c3ccccc3C3C2C=C(C#N)C(=O)N3c2ccc([N+](=O)[O-])cc2)CC1 | - | EC50 | cytopathic effect / MTT | LAI | MT-4 | 1–32 µM |
| COc1ccccc1N1CCN(c2c(F)cc3c(=O)c(C(=O)O)cn(C)c3c2CN(C)C)CC1 | - | EC50 | p24 | BaL | PBMC | ~0.16 µM |
| CCN(CC)CCOc1ccc(NC(=O)COc2cc(OC)ccc2C(=O)c2ccccc2)cc1 | - | EC50 | syncytia | RF | C8166 | 0.105 µM |
| CC=CCOc1cc(NC(=S)c2ccoc2C)ccc1OC | RT-L100I | EC50 | cytopathic effect / XTT | NL4-3 | CEM + CEM-SS | 0.6 µM |
| O=C(O)c1[nH]c(=O)c(O)c2c1CCN(Cc1ccc(F)cc1)C2=O | - | EC50 | p24 | - | MT-4 | <10 µM |
| CN1c2ccccc2C2C1C=CC(=O)N2c1ccc(C(=O)O)cc1 | - | EC50 | cytopathic effect / MTT | LAI | MT-4 | 1–32 µM |
| S=C(Nc1ccc(I)cc1)NC1CCN(Cc2ccccc2)CC1 | - | EC50 | MTT | IIIB | MT-4 | >7 µM |
| O=C(COc1ccc(Cl)cc1C(=O)c1ccccc1)c1cc2ccccc2[nH]1 | - | EC50 | syncytia | RF | C8166 | >128 µM |
| N#Cc1ccc(N2C(=O)C=CC3Nc4ccccc4C32)cc1 | - | EC50 | cytopathic effect / MTT | LAI | MT-4 | 1–32 µM |
| CCN(CC)CCOc1ccc(NC(=O)COc2ccccc2C(=O)c2ccccc2)cc1 | - | EC50 | syncytia | RF | C8166 | 0.0112 µM |
| C=C(Cl)COc1cc(NC(=S)c2ccoc2C)ccc1C | - | EC50 | syncytia | IIIB | CEM | 0.09 µg/mL |
| O=C(NC1CCC1)c1[nH]c(=O)c(O)c2c1CCN(Cc1ccc(F)cc1)C2=O | - | EC50 | p24 | - | MT-4 | <10 µM |
| Cc1occc1C(=S)Nc1ccc(Cl)c(/C=N/OC(C)(C)C)c1 | RT-K101E | EC50 | cytopathic effect / XTT | NL4-3 | CEM + CEM-SS | 1 µM |
| Nc1ccn([C@@H]2CS[C@H](CO)O2)c(=O)n1 | M184I-R263K | EC50 | luciferase | NL4-3 | TZM-bl | 0.6442 µM |
| CC(=O)N(C)c1c2c(c(O)c(=O)n1C)C(=O)N(Cc1ccc(F)cc1)CC2 | - | EC95 | p24 | - | MT-4 | ≤10 µM |
| C=C(Cl)COc1cc(NC(=S)c2ccoc2C)ccc1Cl | RT-L100I | EC50 | syncytia | TIBO R82150-resistant (RT L100I) | CEM | 0.7 µg/mL |
| CCN(CC)CCOc1ccc(NC(=O)COc2ccccc2C(=O)c2ccc(OC)cc2)cc1 | - | EC50 | syncytia | RF | C8166 | 0.6007 µM |
| Cc1occc1C(=S)Nc1ccc(Cl)c(/C=N/OC(C)(C)C)c1 | RT-V106A | EC50 | syncytia | IIIB | CEM | 0.37 µM |
| Cc1nc2ccccc2c(-c2cc(F)c3c(c2C)CCCO3)c1[C@H](OC(C)(C)C)C(=O)O | K173R | EC50 | luminescence | NL4-3 | MT-4 | 0.019 µM |
| CN(C)C(=O)c1c2c(c(O)c(=O)n1C)C(=O)N(Cc1ccc(F)cc1)CC2 | - | EC50 | p24 | - | MT-4 | <10 µM |
| S=C(Nc1cccc(Br)c1)NC1CCN(Cc2ccccc2)CC1 | - | EC50 | MTT | IIIB | MT-4 | >14.6 µM |
| COC[C@@H](c1ccc(C(F)(F)F)cc1)N1CCN(C2(C)CCN(C(=O)c3c(C)ncnc3C)CC2)C[C@@H]1C | - | EC50 | - | R14/S | TZM-bl | 0.0096 µM |
| Cc1sccc1C(=O)Nc1ccc(Cl)c(OCC=C(Cl)Cl)c1 | RT-V106A | EC50 | syncytia | Nevirapine-resistant isolate (RT V106A) | CEM | 1.2 µg/mL |
| C=CCO/N=C/c1cc(NC(=S)c2ccoc2C)ccc1Cl | RT-D67N K70R T215Y K219Q | EC50 | cytopathic effect / XTT | 4xAZT(RT-D67N K70R T215Y K219Q) | CEM + CEM-SS | 0.03 µM |
| CN(C)C(=O)c1c2c(c(O)c(=O)n1C)C(=O)N(Cc1ccc(F)c(Cl)c1)CC2 | - | EC50 | p24 | - | MT-4 | <10 µM |
| CC1(C)CC=C(c2cn(-c3nccc(C(=O)NC4CCC(N5CC6CCC(C5)O6)CC4)n3)c3ccc(F)c([C@H](OC(C)(C)C)C(=O)O)c23)CC1 | L74I/T124A/G140S/Q148H | EC50 | luminescence | NL4-3 | MT-4 | 0.0056 µM |
| Cc1ccsc1C(=S)Nc1ccc(Cl)c(/C=N/OC(C)(C)C)c1 | - | EC50 | cytopathic effect / XTT | RF | CEM + CEM-SS | 0.083 µM |
| N#CC1=CC2C(c3ccccc3N2CCN2CCOCC2)N(c2ccc(C#N)cc2)C1=O | - | EC50 | cytopathic effect / MTT | LAI | MT-4 | >32 µM |
| S=C(NCc1ccco1)Nc1ccc(Cl)cc1 | - | EC50 | MTT | IIIB | MT-4 | >36.7 µM |
| Nc1ccn([C@@H]2CS[C@H](CO)O2)c(=O)n1 | - | EC50 | cytopathic effect / MTT | - | MT-4 | 0.63 µM |
| C/C(Cl)=C/COc1cc(NC(=O)c2ccoc2C)ccc1Cl | - | EC50 | syncytia | IIIB | CEM | 0.045 µg/mL |
| FC(F)(F)c1cccc(NC(=S)NC2CCN(Cc3ccccc3)CC2)c1 | - | EC50 | MTT | IIIB | MT-4 | >26 µM |
| CN1c2ccccc2C2C1C=CC(=O)N2c1ccc(-c2nc(=S)o[nH]2)cc1 | - | EC50 | cytopathic effect / MTT | LAI | MT-4 | >32 µM |
| Cc1occc1C(=S)Nc1ccc(Cl)c(C(=O)OC(C)C)c1 | RT-L100I | EC50 | cytopathic effect / XTT | NL4-3 | CEM + CEM-SS | 0.6 µM |
| S=C(Nc1ccccc1Br)NC1CCN(Cc2ccccc2)CC1 | - | EC50 | MTT | IIIB | MT-4 | >58 µM |
| O=C(O)CCN(CCN(CC(=O)O)Cc1cnc2c(O)cccc2c1)CC(=O)O | - | EC50 | RT activity | HXB2 | MT-4 | 10.2 µM |
| Cc1occc1C(=S)Nc1ccc(Cl)c(C(=O)OCC2CC2)c1 | RT-A98G | EC50 | cytopathic effect / XTT | NL4-3 | CEM + CEM-SS | 0.1 µM |

The first 3 rows once more:

smiles,mutations,endpoint,method,strain,cells,value
CCN(CC)C(=O)c1c2c(c(O)c(=O)n1C)C(=O)N(Cc1ccc(F)cc1)CC2,-,EC50,p24,-,MT-4,<10 µM
CCCCCCCCCC[N+](C)(C)CCCNCc1c(O)cc2c(c1O)-c1cc(ccc1O)[C@H]1NC(=O)[C@@H]3NC(=O)C4NC(=O)[C@@H](Cc5ccc(c(Cl)c5)Oc5cc3cc(c5O)Oc3ccc(cc3Cl)[C@@H](O)[C@H](NC1=O)C(=O)N[C@@H]2C(=O)O)NC(=O)[C@H](N)c1ccc(O)c(c1)Oc1cc(O)cc4c1,RT-Y181C,EC50,syncytia,-,CEM,8.5 µM
Cc1sccc1C(=S)Nc1ccc(Cl)c(OCC=C(Cl)Cl)c1,RT-E138K,EC50,syncytia,TSAO-m3T-resistant (RT E138K),CEM,0.075 µg/mL

Blank or dashed fields: not listed here. ECn is the concentration giving n% inhibition of infection, replication or growth. Conditions beyond the fields shown may differ between rows.